Source: patent US20250296984A1, “THERAPEUTIC AND DIAGNOSTIC AGENTS AND USES THEREOF” (priority 2022, published 2025)

How the values were obtained:
[1] = biological target: T1, US28 protein from HCMV strain Merlin on HEK Phoenix Ampho cells (Human cytomegalovirus, S330G); test: Flow cytometry, HEK Phoenix Ampho cells transfected with US28 (Merlin); assay type: binding; settings: mock subtracted, fold-difference minus 1, sign = increase or decrease
T1 construct: expressed in transfected cells; host or cells: HEK Phoenix Ampho (ATCC-CRL-3213)
Description: (§1) ii. Materials: • Cells: HEK Phoenix Ampho (ATCC-CRL-3213), p 21. • Staining buffer: PBS with 1% BSA, 2 mM EDTA. • Plasmid: Encoding US28 protein from different HCMV strains: DB; TB40/E; Merlin; and VHL/E. • Blocking: Human TruStain FcX™ (ref 422302). • Live Dead: Invitrogen™ eBioscience™ Fixable Viability Dye eFluor™ 780 (ref 13539140). • Primary antibodies: 7B1F3 (6.76 nM=1 μg/ml); hum7B1F3 (6.76 nM=1 μg/ml).
(§2) The day before transfection, HEK Ampho cells were seeded in a 1×6-well plate with 1×10^6 live cells/well, 2 mL/well. Seeded 4 wells for HEKPhoenix_plasmids. Seeded 2 wells for HEKPhoenix_Mock transfected. Incubated the cells in a 37° C. incubator with >80% relative humidity and 5% CO2.
(§3) After 1 day, cells will have adhered and reached >60% confluency. Removed 700 uL media from each well prior to transfection. Allowed X-tremeGENE™ HP DNA Transfection Reagent, DNA and diluent Opti-MEM® I Reduced Serum Medium to warm to +15° C. to +25° C., and vortexed gently. Placed 100 μL diluent in a sterile tube for each condition. Added 1 μg plasmid DNA. Pipetted gently to mix (DNA was not added for the mock condition): • DB (683.3 ng/μL): 1.46 μL • TB40/E (742.05 ng/μL): 1.35 μL • Merlin (70.78 ng/μL): 14.13 μL • VHL/E (51.87 ng/μL): 19.28 μL
(§4) Added 3 μL X-tremeGENE™ HP DNA Transfection Reagent to the diluted DNA. (3:1 ratio of reagent to DNA). Pipetted gently to mix, then: • 1. […]

[2] = biological target: T2, US28 protein from HCMV strain DB on HEK Phoenix Ampho cells (Human cytomegalovirus, D170N/D19A); test: Flow cytometry, HEK Phoenix Ampho cells transfected with US28 (DB); assay type: binding; settings: mock subtracted, fold-difference minus 1, sign = increase or decrease
T2 construct: expressed in transfected cells; host or cells: HEK Phoenix Ampho (ATCC-CRL-3213)
Description: as §1, §2, §3, §4

Molecule	Variation in binding, relative to determined binding to US28 as encoded by VHL/E; Merlin [1]	Variation in binding, relative to determined binding to US28 as encoded by VHL/E; DB [2]
2F5B11-Myc: 2F5B11 labelled with a Myc tag (antibody, V domains shown) VH: EVQLQESGAELAKPGASVKMSCKASGYTFSSYWIHWIKQRPGQGLEWIGYINPNTAYTEFNQKFMDKATLTADKSSSTAYMQLTSLTSEDSAVYYCARLRSDRTGFAYWGQGTLVTVSA VL: QIVLTQSPSSLAVSVGEKVTMS[about 80 residues not printed]FGAGTKLEIK	+0.01	
4H3C3-Myc: 4H3C3 labelled with a Myc tag (antibody, V domains shown) VH: QVQLQQSGAELAKPGASVKMSCKASGYTFTSYWMHWVKQRPGQGLEWIGYINPSTGYAEYNQKFKDKATLTADKSSSTAYMQLSSLTSEDSAVYYCARLRFGSSGFAYWGQGTLVTVSS VL: QIVLTQSPSSLAVSVGEKVTMS[about 80 residues not printed]FGAGTKLEIK		+0.59
